This is an account of results in publication PMC5882710 (Royal Society Open Science, 2018).

HELM strings list residues between dots; [ac] is acetyl, [am] amide, other brackets name non-standard units.

The data set can be described thus: general procedure: Fmoc solid-phase peptide synthesis; 2-chlorotrityl chloride resin. Conditions: whole synthesis.

In turn, PEPTIDE1{[Fmoc].F.F.D.K.Y}$$$$V2.0 gave an isolated yield of 99.7%.

The substance PEPTIDE1{[Nap].F.F.D.K.Y}$$$$V2.0 came in with an isolated yield of 99.8%.

Take PEPTIDE1{[Npx].F.F.D.K.Y}$$$$V2.0: the isolated yield amounted to 99.3%.
